A mixed list of measured activities; the numbers were collected in NIAID ChemDB.

All rows: growth or infection tests; organism: HIV-1; method: p24; measure: EC50

Neighbouring rows are from separate reports. An empty or dashed field is not shown. ECn: concentration that inhibits the pathogen or its effect by n%. Two numbers with a dash give a range or band.

SMILES | setting | changes | strain or isolate | cell line | value
Cc1cn([C@H]2C[C@H](N=[N+]=[N-])[C@@H](CO)O2)c(=O)[nH]c1=O |  |  | LAI | MT-2 | 0.003 µM
Cc1ccc(NC(=S)N[C@H](C)c2cccc3ccccc23)nc1 |  | RT-L74V V106A T215Y | RT multidrug-resistant (L74V V106A T215Y) | PBMC | 0.003 µM
Cc1cc(C)c(-n2nnnc2SCC(=O)Nc2ccc(C(=O)NCCCN(C)C)cc2Cl)c(C)c1 | 10% FBS |  |  | MT-4 | <0.062 µM
Cc1cn([C@H]2CC[C@@H](CO)O2)c(=O)[nH]c1=O |  |  | BRU | CEM | 29 µM
CCOC(=O)Cc1csc(NC(=S)N[C@H](C)c2cccc3ccccc23)n1 |  |  | IIIB | PBMC | 0.054 µM
Cc1cn([C@H]2C[C@H](N=[N+]=[N-])[C@@H](CO)O2)c(=O)[nH]c1=O |  |  | H9/HTLV-IIIB | PBMC | 0.01 µM
O=C(O)P(=O)(O)O |  | RT-K65R | LAI | MT-2 | 66.3 µM
O=c1[nH]cnc2c1ncn2[C@H]1CC[C@@H](CO)O1 |  |  | IIIB | MT-4 | 19 µM
CCOP(=O)(OC[C@@H]1C=C[C@H](n2cc(C)c(=O)[nH]c2=O)O1)C(=O)NC |  |  | GKV-4046 | MT-4 | 0.04 µM
CC(C)CN(C[C@@H](O)[C@H](Cc1ccccc1)NC(=O)[C@H](CC(N)=O)NC(=O)c1ccc2ccccc2n1)C(=O)NC(C)(C)C |  |  | PR-WT | MT-4 | <0.05 µM
CCc1cc(NCc2nc3c(C)ccc(C)c3o2)c(=O)[nH]c1C |  |  | WMJ-2 | MT-4 | <0.1 µM
Cc1cn([C@H]2C[C@H](N=[N+]=[N-])[C@@H](CO)O2)c(=O)[nH]c1=O |  |  | LAI WT | MT-2 | 0.031 µM
CC(C)c1nc(CN(C)C(=O)N[C@H](C(=O)N[C@@H](Cc2ccccc2)C[C@H](O)[C@H](Cc2ccccc2)NC(=O)OCc2cncs2)C(C)C)cs1 |  | PR-D30N A71V | NL4-3-P22 (PR D30N A71V) | MT-4 | <0.09 µM
Nc1nc2c(ncn2[C@H]2CO[C@@H](CO)O2)c(=O)[nH]1 |  | RT-L74V | LAI | MT-2 | 1.17 µM
NS(=O)(=O)c1ccc(NC(=O)CSc2nnnn2-c2cc(Cl)ccc2Cl)c(Cl)c1 | 50% human serum |  |  | MT-4 | <0.125 µM
Cc1cn([C@H]2C[C@H](N=[N+]=[N-])[C@@H](COP(=O)(CC(N)=O)OC3CCCCC3)O2)c(=O)[nH]c1=O |  |  | GKV-4046 | MT-4 | 0.0085 µM
Cc1cn([C@H]2C=C[C@@H](CO)O2)c(=O)[nH]c1=O |  | RT-K65R | LAI | MT-2 | 18.4 µM
C=CCN(C(=O)Cc1ccc(C(F)(F)F)cc1)C1CCN(C[C@H]2CN(C(=O)C3CCCC3)C[C@]2(O)c2ccccc2)CC1 |  |  |  | PBMC | 0.051–0.099 µM
C=C(c1ccc(OC)c(OC)c1)c1nccc2cc(OC)c(OC)cc12 |  |  | IIIB | H9 | >1.85 µg/mL
O=C(CSc1nnnn1-c1cc(Cl)ccc1Cl)Nc1ccccc1[N+](=O)[O-] | 10% FBS |  |  | MT-4 | <0.078 µM
CCCC1=[N+](Cc2ccccc2)CCc2cc(OCc3ccccc3)c(OCc3ccccc3)cc21 |  |  | IIIB | H9 | >0.197 µg/mL
COc1ccc2c(c1)N(C(=O)OC(C)C)[C@@H](CSC)C(=S)N2 |  | RT-L100I V106A G190A | B9 (RT L100I V106A G190A) | H9 | >10 µg/mL
C=CCN(C(=O)NCc1ccc(F)cc1)C1CCN(C[C@H]2CN(C(=O)C3CCCC3)C[C@]2(O)c2ccccc2)CC1 |  |  |  | PBMC | 0.006–0.05 µM
Cc1c(Cl)cccc1-n1nnnc1SCC(=O)Nc1ccccc1[N+](=O)[O-] | 50% human serum |  |  | MT-4 | <0.031 µM
C=CCN(C(=O)NCc1ccc(C(F)(F)F)cc1)C1CCN(C[C@H]2CN(C(=O)C3CCC(F)(F)CC3)C[C@]2(O)c2ccccc2)CC1 |  |  |  | PBMC | 0.006–0.05 µM
C[C@@H](NC(=S)Nc1nc2ccccc2s1)c1cccc2ccccc12 |  |  | IIIB | PBMC | 0.205 µM
COC(=O)[C@@H](NC(=O)[C@@H](NC(=O)CC[C@H](O)[C@H](Cc1ccccc1)NC(=O)[C@H](C)NC(=O)OCc1ccccc1)C(C)C)C(C)C |  |  | IIIB | MOLT-4 | 0.04–3 µM
CCCCCCCCCCCCCC(=O)OC[C@H](COP(=O)(O)OP(=O)(O)OC[C@@H]1CC[C@H](n2cc(C)c(=O)[nH]c2=O)O1)OC(=O)CCCCCCCCCCCCC |  |  | BRU | CEM/TK- | 10.1 µM
C[C@@H](NC(=S)Nc1ccc(Cl)cn1)c1cccc2ccccc12 |  |  | IIIB | PBMC | 0.001 µM
COc1ccc(Cc2cc3cc(OC)c(OC)cc3c[n+]2C)cc1OC |  |  | IIIB | H9 | >100 µg/mL
CC(C)Nc1cccnc1N1CCN(C(=O)c2cc3cc(NS(C)(=O)=O)ccc3[nH]2)CC1 |  | RT-L74V G190E | A2(RT-L74V G190E) | H9 | >10 µg/mL
Oc1ccc(/C=C/c2cc(O)cc(O)c2)cc1 | clinical isolate |  | EJC-X2 | PBMC | >10 µM
C=CCN(C(=O)NCc1ccc(C(F)(F)F)cc1)C1CCN(C[C@H]2CN(C(=O)C3CCCC3)C[C@]2(O)c2ccccc2)CC1 |  |  |  | PBMC | <0.005 µM
Cc1cc(C)c(-n2nnnc2SCC(=O)Nc2ccc([N+](=O)[O-])cc2Cl)c(C)c1 | 10% FBS |  |  | MT-4 | <0.078 µM
CCOP(=O)(OC[C@H]1O[C@@H](n2cc(C)c(=O)[nH]c2=O)C[C@@H]1N=[N+]=[N-])C(=O)NCCc1ccccc1 |  |  | GKV-4046 | MT-4 | <0.0002 µM
O=c1[nH]cnc2c1ncn2[C@H]1CC[C@@H](CO)O1 |  | RT-M184V | XM-M184V | MT-4 | <6.4 µM
C=CCN(C(=O)NCc1ccc(S(=O)(=O)N(C)C)cc1)C1CC2CCC(C1)N2C[C@H]1CN(C(=O)C2CCCC2)C[C@]1(O)c1cccc(F)c1 |  |  |  | PBMC | <0.005 µM
Cc1cn([C@H]2C[C@H](N=[N+]=[N-])[C@@H](CO)O2)c(=O)[nH]c1=O |  | RT-L74V V106A T215Y | RT multidrug-resistant (L74V V106A T215Y) | PBMC | 0.055 µM
Cc1cc(C)c(-n2nnnc2SCC(=O)Nc2ccccc2[N+](=O)[O-])c(C)c1 | 10% FBS |  |  | MT-4 | <0.011 µM
O=c1[nH]cnc2c1ncn2[C@H]1CC[C@@H](CO)O1 |  |  | Isolate 6856 | PBMC | 1.87 µM
O=C(O)P(=O)(O)O |  |  | 8680 CLADE D CLADE D | PBMC | 18.6 µM
COc1ccc(Cc2c3ccc(OC)c(OC)c3cc[n+]2C)cc1OC |  |  | IIIB | H9 | >100 µg/mL
C=CCN(C(=O)NCc1ccc(S(=O)(=O)NC)cc1)C1CCN(C[C@H]2CN(C(=O)C3CCCC3)C[C@]2(O)c2ccccc2)CC1 |  |  |  | PBMC | <0.005 µM
CCc1cc(NCc2nc3c(Cl)ccc(Cl)c3o2)c(=O)[nH]c1C |  |  | RF | MT-4 | <0.05 µM
C=CCN(C(=O)NCc1ccc(S(=O)(=O)N(C)C)cc1)C1CC2CCC(C1)N2C[C@H]1CN(C(=O)C2CCC(F)(F)CC2)C[C@]1(O)c1cccc(F)c1 |  |  |  | PBMC | <0.005 µM
C[C@@H](NC(=S)Nc1ccc(Br)cn1)c1cccc2ccccc12 |  |  | IIIB | PBMC | 0.0015 µM